Here are results for one substance from article PMC7925178.

In assay [1] the target is AMC009 SOSIP.v4.2 trimer (HIV-1 (subtype B)). Briefly: native gel or EMSA. (In general: Mobility shift assays separate free from complexed probe on a gel.)
Assay [2] has the same target. Put plainly: cryo-EM structure.

As usually defined, the stoichiometry N is the number of molecules, sites or subunits per partner or assembly. For AMC009 SOSIP.v4.2 trimer (complex), the stoichiometry N in assay [1] and in assay [2] was 3 each time.
